Anti-infective test results gathered from many reports (values: NIAID ChemDB through PubChem).

All rows: host cell toxicity; cells: MT-2; endpoint: CC50

An empty or dashed field is not shown. Lines come from different laboratories, so protocols vary. CCn: concentration that lowers growth or viability of the cells by n%.

structure | method | value
O=C1N(c2ccccc2)c2ccccc2C1(Cc1nccn1Cc1ccccc1)Cc1nccn1Cc1ccccc1 | - | 13 µM
Nc1nc2c(ncn2CCOCP(=O)(O)O)c(=O)[nH]1 | propidium iodide | 2.5 µM
Cc1cn([C@H]2C[C@H](N=[N+]=[N-])[C@@H](COC(=O)C(=O)N[C@H](C(=O)O)C(C)C)O2)c(=O)[nH]c1=O | trypan blue | 80 µM
CCCC[C@@H]1NC(=O)[C@@H](N)CCCCOc2ccc(cc2)C[C@@H]([C@H](O)CN(CCC(C)C)S(=O)(=O)c2ccc(N)cc2)NC1=O | trypan blue | 8.905 µM
Cc1cn([C@H]2C[C@H](N=[N+]=[N-])[C@@H](COC(=O)C(=O)NC(Cc3ccccc3)C(=O)O)O2)c(=O)[nH]c1=O | trypan blue | 150 µM
CCCCCCCC/C=C\CCCCCCCCOCCOP(=O)(O)COCCn1cnc2c(NC3CC3)nc(N)nc21 | propidium iodide | 0.004 µM
CCCC[C@@H]1NC(=O)[C@@H](NC(C)=O)CCCCOc2ccc(cc2)C[C@@H]([C@H](O)CN(CCC(C)C)S(=O)(=O)c2ccc(N)cc2)NC1=O | trypan blue | 7.371 µM
Cc1cn([C@H]2C[C@H](N=[N+]=[N-])[C@@H](COC(=O)c3ccncc3)O2)c(=O)[nH]c1=O | trypan blue | 150 µM
Nc1nc(=O)n(CCOCP(=O)(O)O)cc1Br | propidium iodide | 100 µM
O=C1c2ccccc2C(=O)N1CC(O)CN1CCC(CC2C(=O)N(c3ccccc3)c3ccccc32)CC1 | - | 78 µM
Cc1cn([C@H]2C[C@H](N=[N+]=[N-])[C@@H](COC(=O)C(=O)N[C@@H](CC(C)C)C(=O)O)O2)c(=O)[nH]c1=O | sulforhodamine | 500 µM
O=C1N(c2ccccc2)c2ccccc2C1(CC1=CCN(CC2CC2)CC1)CC1=CCN(CC2CC2)CC1 | - | >84 µM
Nc1ccn(CCOCP(=O)(O)O)c(=O)n1 | propidium iodide | >100 µM
CCCC[C@@H]1NC(=O)[C@@H](NC(=O)OC(C)(C)C)CCCCOc2ccc(cc2)C[C@@H]([C@H](O)CN(CCC(C)C)S(=O)(=O)c2ccc(NC(C)=O)cc2)NC1=O | trypan blue | 8.97 µM
O=C1N(c2ccccc2)c2ccccc2C1(Cc1ncc[nH]1)Cc1ncc[nH]1 | - | 135 µM
CN1CCC(=C2c3ccccc3C=Cc3ccccc32)CC1 | ATP | >100 µM

A second listing of 2 rows from above:

| structure | method | value |
|---|---|---|
| CCCC[C@@H]1NC(=O)[C@@H](NC(C)=O)CCCCOc2ccc(cc2)C[C@@H]([C@H](O)CN(CCC(C)C)S(=O)(=O)c2ccc(N)cc2)NC1=O | trypan blue | 7.371 µM |
| CCCC[C@@H]1NC(=O)[C@@H](N)CCCCOc2ccc(cc2)C[C@@H]([C@H](O)CN(CCC(C)C)S(=O)(=O)c2ccc(N)cc2)NC1=O | trypan blue | 8.905 µM |